Measured values published in patent US20240150396A1 (The Texas A&M University System, priority 2021, published 2024).
Certain results were filed several times, with different values. This list holds those alone. There may be further records. Values given together differ for a reason that is not stated; dose, time, organism, isomer or construct need not be as stated for each record.

Legend:
[1] = tested on: SARS-CoV-2 in Vero E6 cells; assay: Anti-CoV-2 activity in Vero E6 cells; assay type: cell-based; details: read-out: Anti-CoV-2 EC50 Vero E6 Cells
[2] = tested on: T. cruzi epimastigotes (strain Y); assay: Growth of axenic cultures of T. cruzi epimastigotes; details: read-out: T. cruzi axenic culture EC50

Row | Structure (SMILES) | EC50 [1] | EC50 [2]
1 | CN1CCN(C(=O)N[C@@H](Cc2ccccc2)C(=O)N[C@H]2Cc3ccccc3OC2O)CC1 (some centres unmarked) | 7.5 µM and 2.5 µM to 7.5 µM | –
2 | CN1CCN(C(=O)N[C@@H](Cc2ccccc2)C(=O)N[C@H](/C=C/S(=O)(=O)c2ccccc2)CCc2ccccc2)CC1 [Compound K11777, reference compound] | – | > 20 µM and 60 µM
